Compound potency records, mixed from different reports. Data source: NIAID ChemDB in PubChem.

Common to all: whole-cell or culture tests; species: HIV-1

An empty or dashed field is not shown.

| smiles | conditions | strain or isolate | read by | read-out | cells | mutations | result |
|---|---|---|---|---|---|---|---|
| CC(C)(C)NC(=O)[C@@H]1C[C@@H]2CCCC[C@@H]2CN1C[C@@H](O)[C@H](Cc1ccccc1)NC(=O)[C@H](CC(N)=O)NC(=O)c1ccc2ccccc2n1 | - | NL4-3.C14 (PR L10F V32I M46I I47V I84V T91S) | p24 | EC50 | MT-4 | PR-L10F V32I M46I I47V I84V T91S | 0.003 µM |
| Cc1nc(CCCCCCC(=O)c2ccccc2)n2nc(-n3cncc3C)ccc12 | - | RF | syncytia | EC50 | C8166 | - | 0.01 µM |
| Nc1nc2c(ncn2[C@H]2CO[C@@H](CO)O2)c(=O)[nH]1 | - | LAI | RT activity | EC50 | PBMC | - | 0.51 µM |
| O=C1/C(=C/c2ccc(O)c(O)c2)CCC/C1=C\c1ccc(O)c(O)c1 | - | - | cytopathic effect / MTT | EC50 | MT-4 | - | >7.4 µM |
| N[C@H]1CCc2cc(O)c(O)c(O)c2-c2ccc(O)c(=O)cc21 | - | IIIB | p24 | EC50 | H9 | - | 30 µM |
| O=C1/C(=C/c2cc(O)c(O)c(O)c2)CCC/C1=C\c1cc(O)c(O)c(O)c1 | - | - | cytopathic effect / MTT | EC50 | MT-4 | - | >50 µM |
| CCCCCCCCCCCC(=O)O[C@@]12[C@H](OC(=O)C(C)CC)[C@@H](C)[C@@]3(O)[C@@H](C=C(CO)C[C@]4(O)C(=O)C(C)=C[C@@H]34)[C@@H]1C2(C)C | - | LAV-1 | cytopathic effect / microscopy / visual reading | EC50 | MT-4 | - | <15.76 µg/mL |
| C[C@@H]1[C@H](O)[C@H](C)[C@@]2(NC(=O)OC(C)(C)C)O[C@@H]1[C@H]1O[C@H]12 | - | NL4-3 | MTT | EC50 | MT-4 | - | >440 µM |
| O=c1[nH]cnc2c1ncn2[C@H]1CC[C@@H](CO)O1 | - | IIIB | p24 | EC50 | MT-4 | - | 19 µM |
| Nc1ccn([C@@H]2CO[C@H](CO)S2)c(=O)n1 | - | CCR5 | p24 | EC50 | PBMC | - | 0.6 µM |
| Cc1ccc(C[C@H](NC(=O)c2cccc(O)c2C)[C@H](O)C(=O)N2C[C@@H](Cl)C[C@H]2C(=O)NC(C)(C)C)cc1C | - | IIIB | p24 | EC50 | CEM | - | <0.051 µM |
| O=C(O)c1ccc2ccc(/C=C/c3cc(O)c(O)c(O)c3)nc2c1O | - | - | cytopathic effect / MTT | EC50 | MT-4 | - | 1.2 µM |
| Cn1nc(NS(C)(=O)=O)c2c(Cl)ccc(-n3c([C@H](Cc4cc(F)cc(F)c4)NC(=O)Cn4nc(C(F)F)c5c4C(F)(F)[C@@H]4C[C@H]54)nc(C#CC(C)(C)S(C)(=O)=O)cc3=O)c21 | - | NL4-3 | luciferase | EC50 | MT-2 | - | 0.000069 µM |
| COc1cc2c(c(OC)c1O)-c1ccc(SC)c(=O)cc1[C@@H](NC(C)=O)CC2 | - | IIIB | p24 | EC50 | H9 | - | 0.047 µM |
| C/C=C(\C)C(=O)O[C@@]12[C@H](O)[C@@H](C)[C@@]3(O)[C@@H](C=C(COC(=O)CCCCCCC/C=C\C/C=C\CCCCC)C[C@]4(O)C(=O)C(C)=C[C@@H]34)[C@@H]1C2(C)C | - | LAV-1 | cytopathic effect / microscopy / visual reading | EC50 | MT-4 | - | <7.81 µg/mL |
| CC(C)c1ccccc1-n1nnnc1SCC(=O)Nc1ccccc1Cl | - | - | p24 | EC95 | MT-4 | - | <10 µM |
| Cc1cn([C@H]2C[C@H](N=[N+]=[N-])[C@@H](CO)O2)c(=O)[nH]c1=O | - | RF | - | EC50 | MT-4 | - | 0.055 µM |
| Cc1cn([C@H]2C[C@H](N=[N+]=[N-])[C@@H](CO)O2)c(=O)[nH]c1=O | - | IIIB | p24 | EC50 | PBMC | - | 0.02 µM |
| O=C(CCC(=O)N1CCN(CCNC(=S)Nc2ccc(Br)cn2)CC1)NCC(=O)OCC#Cc1cn([C@H]2CC[C@@H](CO)O2)c(=O)[nH]c1=O | - | LAI | RT activity | EC50 | CEM + CEM-SS | - | >10 µM |
| COc1cc2c(c(OC)c1OC)-c1ccc(N(C)C)c(=O)cc1[C@@H](N)CC2 | - | IIIB | p24 | EC50 | H9 | - | 0.94 µM |
| Cc1nc(CCCCCCC(=O)c2ccccc2)n2nc(-n3ccnc3)ccc12 | - | RF | p24 | EC50 | C8166 | - | 0.005 µM |
| Cc1ccnc2c1NC(=O)c1cccnc1N2C1CC1 | - | - | - | EC50 | MT-4 | RT-K70R Y181C | <3 µM |
| Cc1cccc(C)c1-n1nnnc1SCC(=O)Nc1ccccc1Cl | - | - | p24 | EC50 | MT-4 | - | <10 µM |
| CC(C)=CCOc1cc(NC(=S)c2ccoc2C)ccc1Cl | - | NL4-3 | luminescence | EC50 | TZM-bl | (36G)V38E N42S | >2000 µM |
| Cc1cccc(Cl)c1-n1nnnc1SCC(=O)Nc1ccccc1[N+](=O)[O-] | - | - | p24 | EC50 | MT-4 | - | <10 µM |
| CCCCCCCCCCCCCC(=O)O[C@@H]1[C@@H](C)[C@@]2(O)[C@@H](C=C(CO)C[C@]3(O)C(=O)C(C)=C[C@@H]23)[C@@H]2C(C)(C)[C@]12OC(C)=O | - | LAV-1 | cytopathic effect / microscopy / visual reading | EC50 | MT-4 | - | <0.00048 µg/mL |
| Cc1nc(CCCCCCC(=O)c2ccccc2)n2nc(-n3cccc3)ccc12 | - | RF | syncytia | EC50 | C8166 | - | 0.007 µM |
| O=C(O)P(=O)(O)O | - | - | plaque count | EC50 | HT4 + HT4-6C | - | 139 µM |
| C[C@@H]1[C@@H]2O[C@]3(NC(=O)OC(C)(C)C)[C@@H](C)[C@H]1O[C@H]2[C@@H]3Br | - | NL4-3 | MTT | EC50 | MT-4 | - | >72 µM |
| CNc1nc(N)nc2c1ncn2[C@H]1CO[C@@H](CO)O1 | - | LAI | RT activity | EC50 | PBMC | - | 1.3 µM |
| Nc1ccn([C@H]2CC[C@@H](CO)O2)c(=O)n1 | - | LAI | p24 | EC50 | MT-2 | RT-K65R | 6.6 µM |
| Cc1cn([C@H]2C[C@H](N=[N+]=[N-])[C@@H](CO)O2)c(=O)[nH]c1=O | - | IIIB | RT activity | EC50 | MT-4 | - | 0.01 µM |
| O=C(O)c1cc(O)cc(O)c1N=Nc1ccc(/C=C/c2ccc(N=Nc3c(O)cc(O)cc3C(=O)O)cc2S(=O)(=O)O)c(S(=O)(=O)O)c1 | - | IIIB | cytopathic effect / XTT | EC50 | CEMx174 + CEM | - | 9 µg/mL |
| Cc1ccnc2c1NC(=O)c1cccnc1N2C1CC1 | clinical isolate | BaL | cytopathic effect / XTT | EC50 | MM + M/M | - | 0.4 µM |
| CCCCCCCCCCCCCCCCCCOCCCOP(=O)(O)C(=O)O | - | - | plaque count | EC50 | HT4 + HT4-6C | - | 0.95 µM |
| Nc1nc2c(ncn2[C@H]2CO[C@@H](CO)O2)c(=O)[nH]1 | - | LAI | p24 | EC50 | MT-2 | RT-L74V | 1.17 µM |
| Cc1cc(C)c(-n2nnnc2SCC(=O)Nc2ccccc2C#N)c(C)c1 | - | - | p24 | EC95 | MT-4 | - | <10 µM |
| Cn1c(N)nc2c(ncn2[C@H]2CO[C@@H](CO)O2)c1=O | - | LAI | RT activity | EC50 | PBMC | - | 14.2 µM |
| CN[C@@H]1[C@H](O[C@@H]2OC[C@@H](O)[C@H](O)[C@H]2O)[C@@H](O)[C@H](O[C@H]2c3cc(C)c(C(=O)N[C@H](C)C(=O)O)c(O)c3-c3c(cc4c(c3O)C(=O)c3cc(OC)cc(O)c3C4=O)[C@@H]2O)O[C@@H]1C | - | UG270 X4 CLADE D | p24 | EC50 | PBMC | - | 3.1 µg/mL |
| OCCc1ccc(O)c(O)c1 | - | NL4-3 | p24 / ELISA | EC50 | PBMC | - | 54.11 µM |
| Cc1nc(CCCCCCC(O)c2ccccc2)n2nc(-n3ccnc3)ccc12 | - | RF | syncytia | EC50 | C8166 | - | 0.006 µM |
| Cc1cc(C)c(-n2nnnc2SCC(=O)Nc2ccc(Cl)cc2[N+](=O)[O-])c(C)c1 | - | - | p24 | EC50 | MT-4 | - | <10 µM |
| Cc1ccnc2c1NC(=O)c1cccnc1N2C1CC1 | - | BRU | plaque count | EC90 | HT4 + HT4-6C | - | 0.45 µM |
| CC(C)(C)NC(=O)c1ccccc1C[C@@H](O)[C@H](Cc1ccccc1)NC(=O)[C@H](CC(N)=O)NC(=O)c1ccc2ccccc2n1 | - | RF | cytopathic effect / MTT | EC50 | CEM + CEM-SS | - | 0.02 µM |
| Cc1cn(-c2ccc3c(C)nc(CCCCCCC(=O)c4ccccc4)n3n2)cn1 | - | RF | syncytia | EC50 | C8166 | - | 0.065 µM |
| Cc1c(O)cccc1C(=O)N[C@@H](CCc1ccccc1)[C@H](O)C(=O)N1C[C@@H](Cl)C[C@H]1C(=O)NC(C)(C)C | - | IIIB | p24 | EC90 | CEM | - | 0.73 µM |
| CCCCCCCCCCCCCCCCCCOCC(COP(=O)(O)C(=O)O)(OC)OC | - | LAI | p24 | EC50 | MT-2 | - | 0.49 µM |
| CCCCCCCCCC(=O)O[C@@]12[C@H](OC(C)=O)[C@@H](C)[C@@]3(O)[C@@H](C=C(CO)C[C@]4(O)C(=O)C(C)=C[C@@H]34)[C@@H]1C2(C)C | - | LAV-1 | cytopathic effect / microscopy / visual reading | EC50 | MT-4 | - | <0.0076 µg/mL |
| O=C(CSc1nnnn1-c1ccccc1Cl)Nc1ccccc1Cl | - | - | p24 | EC95 | MT-4 | - | <10 µM |
| O=C(CCC(=O)N1CCN(CCNC(=S)Nc2ccc(Br)cn2)CC1)NCC(=O)OC[C@@H]1CC[C@H](n2ccc(=O)[nH]c2=O)O1 | - | IIIB | RT activity | EC50 | MT-4 | - | >100 µM |
| CCCCCCCCCCCCCCCCCCOCC(O)CO | - | - | plaque count | EC50 | HT4 + HT4-6C | - | >316 µM |
| CC(C)(C)C(=O)c1sc(C(=O)NCc2ccccc2)c(O)c1O | - | D34 X4 | p24 | EC50 | PBMC | - | 0.4 µM |
| Cc1cc(C)c(-n2nnnc2SCC(=O)Nc2cccc([N+](=O)[O-])c2)c(C)c1 | - | - | p24 | EC95 | MT-4 | - | <10 µM |
| Cc1cn([C@H]2C[C@H](N=[N+]=[N-])[C@@H](CO)O2)c(=O)[nH]c1=O | - | LAI | RT activity | EC50 | PBMC | - | 0.007 µM |
| CC(C)c1cc2c(c(O)c1O)[C@@]1(C(=O)O)CCCC(C)(C)C1CC2 | - | NL4-3 WT | - | EC50 | MT-4 | - | 0.011 µM |
| C[C@H]1[C@@H]2O[C@]3(NC(=O)OC(C)(C)C)[C@@H](C)[C@H]1O[C@H]2[C@@H]3I | - | NL4-3 | MTT | EC50 | MT-4 | - | >63 µM |
| Cc1cc(C)c(-n2nnnc2SCC(=O)Nc2cc(F)ccc2F)c(C)c1 | - | - | p24 | EC95 | MT-4 | - | <10 µM |
| CC(C)Nc1nc(N)nc2c1ncn2[C@H]1CO[C@@H](CO)O1 | - | LAI | RT activity | EC50 | PBMC | - | 5.4 µM |
| Cc1nc(CCCCCOC(=O)C2CCCC2)n2nc(Cl)ccc12 | - | RF | cytopathic effect | EC50 | MT-4 | - | >250 µM |
| Cc1cc(C)cc(S(=O)(=O)c2c(C(=O)NC(C)C(N)=O)[nH]c3ccc(Cl)cc23)c1 | - | - | MTT | EC50 | MT-4 | Y181C | 0.096 µM |
| CCCCCCCCCCCCCCCCCCOC[C@H](CO)OC | - | LAI | p24 | EC50 | MT-2 | - | 63 µM |
| Cc1cn([C@H]2C[C@H](N=[N+]=[N-])[C@@H](CO)O2)c(=O)[nH]c1=O | - | CD 451 | p24 / ELISA | EC50 | PBL(PHA STIM.) + PBL | - | <0.2 µM |
| O=C1/C(=C/c2cc(O)c(O)c(O)c2)CN(Cc2ccccc2)C/C1=C\c1cc(O)c(O)c(O)c1 | - | - | cytopathic effect / MTT | EC50 | MT-4 | - | 30 µM |
| Cc1cn([C@H]2C[C@H](N=[N+]=[N-])[C@@H](CO)O2)c(=O)[nH]c1=O | - | LAI | p24 | EC50 | MT-2 | RT-K65R | 0.01 µM |
| CC(C)Nc1cccnc1N1CCN(C(=O)c2cc3cc(NS(C)(=O)=O)ccc3[nH]2)CC1 | - | IIIB | p24 | EC50 | H9 | - | 0.006 µM |
| Cc1ccc(NC(=O)Nc2ccc(-c3ccc(NC(=O)Nc4ccc(-c5ccc(NC(=O)Nc6ccc(-c7ccc(NC(=O)Nc8ccc(-c9ccc(NC(=O)Nc%10ccc(C)cc%10)cc9S(=O)(=O)O)c(S(=O)(=O)O)c8)cc7S(=O)(=O)O)c(S(=O)(=O)O)c6)cc5S(=O)(=O)O)c(S(=O)(=O)O)c4)cc3S(=O)(=O)O)c(S(=O)(=O)O)c2)cc1 | - | RF | p24 | EC50 | MT-4 | - | >11 µM |
| CC(=O)O[C@H]1[C@H](C)[C@@H]2O[C@@](NC(=O)OC(C)(C)C)([C@@H]3O[C@H]23)[C@H]1C | - | NL4-3 | MTT | EC50 | MT-4 | - | >76 µM |
| Cc1cc(O)c(C)c(C(=O)N[C@@H](Cc2ccccc2)[C@H](O)C(=O)N2C[C@@H](Cl)C[C@H]2C(=O)NC(C)(C)C)c1 | - | IIIB | p24 | EC90 | CEM | - | 0.115 µM |
| O=C1/C(=C/c2ccc([N+](=O)[O-])c(O)c2)CN(Cc2ccccc2)C/C1=C\c1ccc([N+](=O)[O-])c(O)c1 | - | - | cytopathic effect / MTT | EC50 | MT-4 | - | >3.5 µM |

For reference, 3 entries again:

smiles	conditions	strain or isolate	read by	read-out	cells	mutations	result
CN[C@@H]1[C@H](O[C@@H]2OC[C@@H](O)[C@H](O)[C@H]2O)[C@@H](O)[C@H](O[C@H]2c3cc(C)c(C(=O)N[C@H](C)C(=O)O)c(O)c3-c3c(cc4c(c3O)C(=O)c3cc(OC)cc(O)c3C4=O)[C@@H]2O)O[C@@H]1C	-	UG270 X4 CLADE D	p24	EC50	PBMC	-	3.1 µg/mL
CC(C)(C)C(=O)c1sc(C(=O)NCc2ccccc2)c(O)c1O	-	D34 X4	p24	EC50	PBMC	-	0.4 µM
N[C@H]1CCc2cc(O)c(O)c(O)c2-c2ccc(O)c(=O)cc21	-	IIIB	p24	EC50	H9	-	30 µM

ECn: concentration that inhibits the pathogen or its effect by n%. Neighbouring rows are from separate reports.